Measured values reported in patent US20150218286A1.

Target: CD22 (human) (UniProt P20273)
Assay: cell-based or functional assay

| Substance | LC50, 697 cells (ALL) [ng/mL] | LC50, CA46 cells (Burkitt) [ng/mL] | LC50, EU cells (ALL) [ng/mL] | LC50, KOPN 8 cells (ALL) [ng/mL] | LC50, NALM 6 cells (ALL) [ng/mL] | LC50, RAJI cells (Burkitt) [ng/mL] | LC50, REH cells (ALL) [ng/mL] | LC50, CA46 cells (Burkitt), second series [ng/mL] |
| --- | --- | --- | --- | --- | --- | --- | --- | --- |
| HA22-LR | 0.4 | 0.7 | 1 | 0.1 | 1.5 | 0.3 | 0.3 |  |
| HA22-LR-8X |  |  |  |  |  |  |  | 0.6 |
| HA22-LR-KDEL |  | 0.3 |  |  |  |  |  |  |
